Protein sequences, listed by entry. Tags and fused reporters are not part of them. Residues count along the entry.
UniProt P9WHT9, 58-291 limits assumed: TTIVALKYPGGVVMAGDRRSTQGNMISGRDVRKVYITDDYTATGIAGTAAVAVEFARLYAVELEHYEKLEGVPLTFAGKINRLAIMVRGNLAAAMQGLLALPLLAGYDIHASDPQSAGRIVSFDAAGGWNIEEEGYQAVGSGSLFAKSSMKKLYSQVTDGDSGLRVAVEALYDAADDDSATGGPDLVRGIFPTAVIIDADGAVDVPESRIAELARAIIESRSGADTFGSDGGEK

According to US11203613B2, “Peptidomimetic proteasome inhibitors” (CORNELL UNIVERSITY, priority 2017, dated 2021):

Target: Mtb20SOG (Mycobacterium tuberculosis, UniProt P9WHT9)
Details: read-out: Mtb20SOG IC50

| Structure (SMILES) | IC50 |
| --- | --- |
| CC(C)CCC(=O)N[C@@H](CC(=O)N1CCC[C@@H]1c1ccccc1)C(=O)N[C@H](C)c1nc2ccccc2[nH]1 [CEN-49, N—((S)-1-(((R)-1-(1H-Benzo[d]imidazol-2-yl)ethyl)amino)-1,4-dioxo-4-((R)-2-phenylpyrrolidin-1-yl)butan-2-yl)-4-methylpentanamide] | 636 nM and 420 nM |
| C[C@H](NC(=O)[C@H](CC(=O)N1CCCC[C@@H]1C)Nc1nc2ccccc2o1)c1ncc(-c2ccc(F)cc2F)[nH]1 [CEN-109, (S)-2-(Benzo[d]oxazol-2-ylamino)-N—((S)-1-(5-(2,4-difluorophenyl)-1H-imidazol-2-yl)ethyl)-4-((S)-2-methylpiperidin-1-yl)-4-oxobutanamide] | 2490 nM |

Where “and” joins values, the source holds several entries; their conditions need not be identical. Identical values can stand only once.
